Taken from: PubChem BioAssay AID504761 (Drosophila RNAi Screening Center, 2011)

Test: 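Genome-wide fly cell screen for genes dengue virus requires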 (primary screen)
Cell system: D.Mel-2 cells from Drosophila
Reagent: long dsRNA against Drosophila genes
Conditions: infection with dengue virus type 2; dose and infection time not stated
Read-out: 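Cells stained for dengue envelope protein and imaged; percent of infected cells per well on duplicate plates, ranked by infection, with stained nuclei counted for cell number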
Reading the numbers: infection score: higher = more virus-infected cells; cell count: higher = more cells in the well
Rule for the call: 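Low infection ranks in the two replicates (chance level up to 0.065) followed by a retest with a 1.5-fold or larger significant decrease, p below 0.05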
Calls: active = confirmed: knock-down lowers infection; inactive = not picked or not confirmed
The screen tested about 22,000 reagents; shown is a random part of those that have a named target and a result. In the full data, 116 (0.52%) were called active. 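Calls depend on retest data that are not deposited; infection was ranked per plate without normalising between plates; the unit of the infection score is not given.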 The raw values are shown without normalisation. Not all columns of the deposit are shown. Not given: the amount of reagent, the time to read-out.

target gene | DRSC id | infection score, replicate 1 | infection score, replicate 2 | cell count, replicate 1 | Outcome
Ipk1 | DRSC04235 | 14.2 | 29 | 6034 | inactive
Ipk1 | DRSC04236 | 16.3 | 27.4 | 5477 | inactive
Ipk1 | DRSC04237 | 8.06 | 3.15 | 6438 | inactive
obe | DRSC15736 | 1.9 | 2.61 | 6196 | active
Smvt | DRSC15426 | – | – | 314 | inactive
dpr17 | DRSC12885 | 1.59 | 0.8 | 6282 | inactive
dpr17 | DRSC14958 | 4.29 | 8.91 | 6685 | inactive
Sps2 | DRSC03441 | 27.3 | 5 | 5806 | inactive
CG32148 | DRSC09338 | 9.24 | 6.29 | 6301 | inactive
CG32148 | DRSC28787 | – | – | 309 | inactive
CG31807 | DRSC01550 | 2.19 | 0.68 | 5991 | inactive
CG7546 | DRSC08885 | 4.95 | 3.27 | 5961 | inactive
CG7546 | DRSC10871 | 5.11 | 3.81 | 6579 | inactive
CG7546 | DRSC22148 | 5.26 | 18.9 | 6880 | inactive
CG6867 | DRSC20013 | 1.27 | 0.4 | 6231 | inactive
CG6867 | DRSC25889 | 3.37 | 2.15 | 6322 | inactive
Hr3 | DRSC07441 | 11 | 12.8 | 6205 | inactive
CG7406 | DRSC20042 | 2.93 | 1.4 | 4260 | inactive
CG7406 | DRSC28709 | 9.1 | 16.4 | 5991 | inactive
CG8461 | DRSC16424 | 4.95 | 5.73 | 6444 | inactive
lncRNA:CR32368 | DRSC08899 | 3.4 | 5.93 | 5407 | inactive
lncRNA:CR32368 | DRSC25473 | 3.41 | 6.55 | 6425 | inactive
CG14731 | DRSC14952 | 3.81 | 6.36 | 6773 | inactive
CG4546 | DRSC15593 | 1.64 | 7.88 | 6572 | inactive
CG4546 | DRSC29584 | – | – | 409 | inactive
CG4629 | DRSC00659 | 7.77 | 1.72 | 6452 | inactive
CG4629 | DRSC27952 | 11.5 | 4.26 | 6498 | inactive
CG9222 | DRSC03158 | 11.8 | 0.9 | 5443 | inactive
Vta1 | DRSC08604 | 2.77 | 10.4 | 7341 | inactive
Vta1 | DRSC22848 | 2.75 | 1.51 | 6045 | inactive
ens | DRSC08454 | 15.6 | 14.7 | 5496 | inactive
ens | DRSC25507 | 1.88 | 4.99 | 6444 | inactive
CG1575 | DRSC18069 | 23.5 | 10.7 | 5404 | inactive
CG1575 | DRSC27030 | 4.29 | 16.9 | 6129 | inactive
bora | DRSC10744 | 9.62 | 4.76 | 4668 | inactive
DCTN5-p25 | DRSC03525 | 26.8 | 15 | 5796 | inactive
DCTN5-p25 | DRSC26867 | 5.08 | 1.64 | 6457 | inactive
GNBP1 | DRSC11169 | 8 | 3.06 | 6676 | inactive
GNBP1 | DRSC21836 | 6.83 | 15 | 6471 | inactive
Mo25 | DRSC11224 | 8.66 | 20.5 | 5609 | inactive
CG17806 | DRSC15276 | 9.72 | 18.4 | 6531 | inactive
CG15425 | DRSC00440 | 4.65 | 6.9 | 6384 | inactive
CG15425 | DRSC24897 | 2.43 | 2.66 | 6712 | inactive
CG11035 | DRSC14287 | 4.61 | 3.98 | 6418 | inactive
Tdrd3 | DRSC10016 | 0.66 | 0.89 | 6361 | inactive
TwdlB | DRSC16050 | – | 0.21 | 472 | inactive
TwdlB | DRSC25071 | 8.65 | 19.9 | 4463 | inactive
IntS9 | DRSC10493 | 7.5 | 12.4 | 5065 | inactive
IntS9 | DRSC28991 | 16.8 | 6.88 | 4397 | inactive
CG7377 | DRSC10830 | 0.98 | 10.2 | 6006 | inactive
CG15395 | DRSC00409 | 1.17 | 1.79 | 6658 | inactive
CG17826 | DRSC10289 | 5.54 | 6.66 | 6874 | inactive
CG17826 | DRSC28654 | 13.3 | 35.5 | 4467 | inactive
CG15771 | DRSC18077 | 1.03 | 0.25 | 6316 | inactive
Alp1 | DRSC11781 | 9.87 | 14.7 | 6866 | inactive
Mcm6 | DRSC18680 | 2.35 | 5.5 | 6431 | inactive
Mcm6 | DRSC25750 | 7.52 | 6.64 | 5836 | inactive
CG4701 | DRSC01952 | 0.56 | 1.64 | 6207 | inactive
Tango2 | DRSC19394 | 3.26 | 1.83 | 6290 | inactive
Tango2 | DRSC21526 | 2.88 | 3.4 | 5877 | inactive
Upf2 | DRSC18218 | 1.81 | 1.58 | 5691 | inactive
Upf2 | DRSC27785 | 6.79 | 15.8 | 6185 | inactive
pix | DRSC10533 | 3.2 | 3.71 | 2967 | inactive
CG15358 | DRSC00388 | 21.6 | 3.44 | 6853 | inactive
Tudor-SN | DRSC08581 | 4.73 | 6.96 | 5922 | inactive
CG11251 | DRSC09825 | 2.23 | 0.91 | 6322 | inactive
CG14543 | DRSC14887 | 3.75 | 19.1 | 4913 | inactive
CG14543 | DRSC26647 | 10.3 | 6.9 | 5448 | inactive
CG8388 | DRSC07157 | 4.37 | 10.3 | 6675 | inactive
hang | DRSC23216 | 0.83 | 0.65 | 6852 | inactive
hang | DRSC29322 | – | 2.45 | 292 | inactive
akirin | DRSC11000 | 19.9 | 18.1 | 4645 | inactive
akirin | DRSC26196 | 18.8 | 4.52 | 4451 | inactive
CG34248 | DRSC09426 | 0.37 | 0.14 | 5896 | active

Look-ups from above.
CG11035 [DRSC14287], Outcome = inactive
Result for Tdrd3 [DRSC10016] under “Outcome”: inactive
Under “cell count, replicate 1”, CG4701 [DRSC01952] is entered as 6207
Value of hang [DRSC29322] in “Outcome”: inactive
